This is an account of results in PMC11496496, “Molecular architecture of monkeypox mature virus” (2024).

Usually stoichiometry N stands for a count of units in the complex or per binding partner.

The target in this test is MPXV A10 (palisade protein of the viral core) (monkeypox virus). Nature of the test: cryo-EM structure.

As to “MPXV A10 (palisade protein of the viral core) (natural protein)”, the stoichiometry N was determined as 3.
